From patent publication US9115083B2 (Simpson Biotech Co., Ltd, priority 2011, dated 2015) come the findings set out here.

Protein sequences, listed by entry. Tags and fused reporters are not part of them. Residues count along the entry.
UniProt P27958, 1027-1657 limits assumed: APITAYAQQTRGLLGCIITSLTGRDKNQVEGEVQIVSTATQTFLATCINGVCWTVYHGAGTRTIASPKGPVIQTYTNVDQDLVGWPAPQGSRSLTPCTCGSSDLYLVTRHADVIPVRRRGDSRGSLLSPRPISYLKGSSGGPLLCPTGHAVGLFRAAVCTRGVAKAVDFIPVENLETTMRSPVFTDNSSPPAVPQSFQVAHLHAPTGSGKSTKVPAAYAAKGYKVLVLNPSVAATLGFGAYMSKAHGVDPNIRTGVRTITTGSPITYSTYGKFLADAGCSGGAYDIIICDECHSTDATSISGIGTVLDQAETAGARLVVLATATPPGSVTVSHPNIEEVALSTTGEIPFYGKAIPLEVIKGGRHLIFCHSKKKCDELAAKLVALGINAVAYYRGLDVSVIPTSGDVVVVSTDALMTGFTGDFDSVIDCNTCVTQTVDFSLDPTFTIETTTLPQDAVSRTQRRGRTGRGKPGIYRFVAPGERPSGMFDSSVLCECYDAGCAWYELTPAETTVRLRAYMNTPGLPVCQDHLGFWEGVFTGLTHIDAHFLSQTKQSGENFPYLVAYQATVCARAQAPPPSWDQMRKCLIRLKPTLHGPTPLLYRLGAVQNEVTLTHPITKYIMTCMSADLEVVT
UniProt P27958, 1658-1711 partner limits assumed: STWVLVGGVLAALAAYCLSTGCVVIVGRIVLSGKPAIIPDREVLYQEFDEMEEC

For the assay, the target named is HCV NS3/4A protease (Hepatitis C virus genotype 1a (isolate H77) (HCV), UniProt P27958). Put plainly: HCV protease assay (fluorimetric, FRET substrate). The following applies: read-out: IC50 against HCV protease, 30 min at 37° C., triplicate.
In the case of `CC(C)CC1=C(c2ccc(O)cc2)C(=O)N(C(CC(C)C)C(=O)O)C1=O` (single isomer, unassigned), the IC50 is over 200 µM.

Take `CC(C)CC1=C(c2ccc(O)cc2)C(=O)N(C(Cc2ccc(O)cc2)C(=O)O)C1=O` (stereo not drawn): the IC50 was over 200 µM. As for `CC(C)CC1=C(c2ccc(O)cc2)C(=O)N(C(C(=O)O)C(C)O)C1=O` (stereo not drawn), the IC50 is over 200 µM.
